Laboratory results reported in paper PMC7617978, “Anti-trypanosomal quinazolines targeting lysyl-tRNA synthetases show partial efficacy in a mouse model of acute Chagas disease” (Science translational medicine, 2025).

Test system: T. cruzi (Sylvio X10/7A1 strain) epimastigote
Assay type: cell-based
Conditions: in vitro; parasite not stated (discussion)

Structure (SMILES): Cc1nc(N)c2c(F)c(F)c(NC3CCCC3)c(F)c2n1 [DMU371, N7-Cyclopentyl-5,6,8-trifluoro-2-methylquinazoline-4,7-diamine]
- resistance conferred by mutation of a single amino acid in the KRS1 active site: > 20 fold
